This passage reports IC50 results from ChEMBL document CHEMBL1671672, “Human immunodeficiency virus type 1 recombinant reverse transcriptase enzymes containing the G190A and Y181C resistance mutations remain sensitive to etravirine” (Antimicrob Agents Chemother, 2009).

In general, IC50 refers to the concentration at which inhibition is half-maximal. High values mean a need for much substance, low ones inhibition by little substance.

Common to all, as to design: species or system SubtypeB
The target in test [1] is T1, Human immunodeficiency virus type 1 reverse transcriptase (Human immunodeficiency virus 1, UniProt Q72547). In words: Inhibition of Human immunodeficiency virus 1 subtype B reverse transcriptase DNA-dependent DNA polymerase activity by gel-based primer extension assay.
Test [2] addresses T2, Human immunodeficiency virus type 1 reverse transcriptase (Human immunodeficiency virus 1, UniProt Q72547, Y181C). In words: Inhibition of DNA-dependent DNA polymerase activity of wild-type Human immunodeficiency virus 1 subtype B reverse transcriptase Y181C mutant by filter-based filtration assay.
Test [3] deals with T1, Human immunodeficiency virus type 1 reverse transcriptase. In words: Inhibition of RNA-dependent DNA polymerase activity of wild-type Human immunodeficiency virus 1 subtype B reverse transcriptase by filter-based filtration assay.
For test [4], the target named is T3, Human immunodeficiency virus type 1 reverse transcriptase (Human immunodeficiency virus 1, UniProt Q72547, G190A). The test can be described thus: Inhibition of DNA-dependent DNA polymerase activity of wild-type Human immunodeficiency virus 1 subtype B reverse transcriptase G190A mutant by filter-based filtration assay.
The target of test [5] is T2, Human immunodeficiency virus type 1 reverse transcriptase. In words: Inhibition of Human immunodeficiency virus 1 subtype B reverse transcriptase Y181C mutant by filter-based filtration assay.
For test [6], the target named is T3, Human immunodeficiency virus type 1 reverse transcriptase. The test can be described thus: Inhibition of Human immunodeficiency virus 1 subtype B reverse transcriptase G190A mutant by filter-based filtration assay.

With `Cc1cc(C#N)cc(C)c1Oc1nc(Nc2ccc(C#N)cc2)nc(N)c1Br` [ETRAVIRINE], the IC50 in test [1] came out at 97 nM; in test [2] it was 107 nM; in test [3], 175 nM; in test [4] it was 129 nM; in test [5], 257 nM; in test [6], 191 nM.
